## Screening data, single-dose tests

Data taken from ChEMBL document CHEMBL3988442, “University of Dundee, Small-Polar-MMV Screening Library” (2021).

Each number is a percent effect as filed.
The record does not define 0% and 100%; most values in the screen are far below 50% and negative numbers occur (in some assays of this library far below -100).
This is part of a subset picked to be rich in strong results.

Mtb glucose medium: 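Whole-cell growth test on Mycobacterium tuberculosis, read after 3 days in glucose-containing 7H9 medium; the read-out is not stated. Tested at 500 µM. Higher reads as more growth inhibition (inferred: compounds with an IC50 in retests scored well above the rest). About 18,000 compounds were tested under these conditions; 7.9% (about 1,400) showed 50% or more at least once.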
Mtb cholesterol medium: 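Growth of Mycobacterium tuberculosis over 4 days (cholesterol / DPPC medium with tyloxapol); the read-out is not stated. Compounds at 500 µM. The record gives no direction; compounds that gave an IC50 in retests scored well above the rest, so higher reads as more growth inhibition. Size under these conditions: about 18,000 compounds, about 900 of them at 50% or above in at least one test.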

Compound: CC(C)Oc1cccc(C(=O)NC2CCN(C)CC2)c1
Mtb cholesterol medium: 8.152

Compound: COC1CCN(C(=O)CCc2ccc(F)cc2F)C1 (stereo not shown)
Mtb glucose medium: 74.93
Mtb cholesterol medium: 63.68

Compound: CS(=O)(=O)Cc1ccc(NC(=O)N2CCCC2)cc1F
Mtb cholesterol medium: 4.198

Compound: CC(C)(C)CNCCS(=O)(=O)N1CCOCC1
Mtb glucose medium: 1.829

Compound: CC1=NOC(C(=O)NCCc2nc3c(s2)CCCC3)C1 (stereo not shown)
Mtb glucose medium: 54.66

Compound: CN(CCS(N)(=O)=O)Cc1cccc(OC(F)(F)F)c1
Mtb glucose medium: 44.71

Compound: CN(C(=O)c1ccoc1Br)c1cc(C#N)ccn1
Mtb glucose medium: 5.379
Mtb cholesterol medium: -9.777

Compound: O=C1CCC(C(=O)Nc2ccc3c(c2)CCC3)=NN1
Mtb glucose medium: -2.09

Compound: Cc1cc(C(=O)N2CCCC2C(=O)NC2CC2)no1 (stereo not shown)
Mtb glucose medium: -5.256

Compound: Cc1c(C(=O)NCc2ccnc(N(C)C)c2)cnn1C
Mtb cholesterol medium: 2.441

Compound: Cc1ccc(OCC(C)NC(=O)CSCC(N)=O)cc1 (stereo not shown)
Mtb glucose medium: 27.1

Compound: Cc1ncsc1C(=O)NC1CCCCNC1=O (stereo not shown)
Mtb glucose medium: 63.3
Mtb cholesterol medium: -11.59

Compound: Cn1c(SCCN2CCOCC2)nc2ccsc2c1=O
Mtb glucose medium: 30.17

Compound: COc1ccc(OC)c(NC(=O)c2ccccn2)c1
Mtb glucose medium: 82.36
Mtb cholesterol medium: 78.5

Compound: NCCS(=O)(=O)N1CCc2ccccc21
Mtb glucose medium: 77.9
Mtb cholesterol medium: 70.73

Compound: Cc1noc(C(C)Nc2ccc3c(c2)CCC(=O)N3)n1 (stereo not shown)
Mtb cholesterol medium: -13.52

Compound: CCOc1cc(Cl)ccc1CN
Mtb glucose medium: 55.45

Compound: CN(C)c1cccc(NS(=O)(=O)c2cccs2)n1
Mtb cholesterol medium: -3.235

Compound: CC(Cn1cccn1)NCC(=O)N1CCNC(=O)C1 (stereo not shown)
Mtb glucose medium: 6.378

Compound: COc1cc(C(=O)NCC2CCC2)cc2c1OCCO2
Mtb glucose medium: 58.01

Compound: Cn1nc(C(F)(F)F)c(Cl)c1C(=O)N[C@@H]1CCNC1
Mtb glucose medium: 52.01

Compound: COc1ccc(Cl)c(S(=O)(=O)NC2CNC2)c1
Mtb glucose medium: 10.44

Compound: CC(C)N(Cc1ccccn1)C(=O)c1cc(Cl)c[nH]1
Mtb glucose medium: 55.33

Compound: COc1ccc(NC(=O)CSc2ncnc(N)n2)cc1
Mtb glucose medium: 6.5

Compound: COc1cccc(CN(C)C(=O)c2cc[nH]n2)n1
Mtb glucose medium: 21.29
Mtb cholesterol medium: 5.392

Compound: CN(C)c1nc(CS(=O)(=O)c2cccc(F)c2)ns1
Mtb glucose medium: 4.645

Compound: O=C(c1c[nH]c(=O)c2ccccc12)N1CCOCC1
Mtb glucose medium: 2.198

Compound: CN1C(=O)c2ccc(C(=O)NC3CC3)cc2C1=O
Mtb cholesterol medium: 61.33

Compound: Cc1ocnc1CNC(=O)CN(C)C(=O)c1cccs1
Mtb cholesterol medium: -1.468

Compound: CN(CCC#N)C(=O)CN1C(=O)c2ccccc2C1=O
Mtb glucose medium: -9.36
Mtb cholesterol medium: -8.831

Compound: CN(C)CCO[C@@H]1COCC[C@H]1NC1CSCCSC1
Mtb glucose medium: 14.06

Compound: O=C(CN1CCNCC1)c1ccco1
Mtb cholesterol medium: 65.05

Compound: COC(=O)c1ccc(COc2ccccc2CO)o1
Mtb glucose medium: 59.76
Mtb cholesterol medium: 52.67

Compound: Cc1nn(CC(=O)NCCc2c[nH]cn2)c(C)c1C
Mtb glucose medium: -4.34

Compound: Cc1ccc(F)cc1CC(=O)N1CC[C@H](O)[C@@H](O)C1
Mtb cholesterol medium: 2.414

Compound: CCN(C(=O)Cc1ccsc1)C1CCS(=O)(=O)C1 (stereo not shown)
Mtb glucose medium: 1.56

Compound: Cl.Cl.N[C@@H]1CCN(c2cccnc2)C1
Mtb glucose medium: 23.49
Mtb cholesterol medium: 10.88

Compound: CC(C)c1cc(C(=O)N(C)C(C)c2ccon2)on1 (stereo not shown)
Mtb glucose medium: 59.56
Mtb cholesterol medium: 66.44

Compound: NCc1cccc(=O)[nH]1
Mtb glucose medium: 1.977

Compound: CNC(=O)C1CCCN1Cc1cccc(N(C)C)c1 (stereo not shown)
Mtb glucose medium: 16.18

Compound: COc1cc(Br)ccc1CN
Mtb glucose medium: 7.963

Compound: COc1cccc(CO)n1
Mtb glucose medium: 9.882
Mtb cholesterol medium: 11.1

Compound: COC(=O)CN(C(=O)c1ccc(Cl)cn1)C1CCCC1
Mtb cholesterol medium: 9.789

Compound: CCc1nccn1CCN1CC2(CCOC2)CCC1=O (stereo not shown)
Mtb glucose medium: 2.136

Compound: COc1ccc(F)c(F)c1CN1CCOC(CCO)C1 (stereo not shown)
Mtb cholesterol medium: 2.81

The first 3 entries again:

- CC(C)Oc1cccc(C(=O)NC2CCN(C)CC2)c1 : Mtb cholesterol medium: 8.152%
- COC1CCN(C(=O)CCc2ccc(F)cc2F)C1 (stereo not shown) : Mtb glucose medium: 74.93%; Mtb cholesterol medium: 63.68%
- CS(=O)(=O)Cc1ccc(NC(=O)N2CCCC2)cc1F : Mtb cholesterol medium: 4.198%